Laboratory results taken from article PMC10141620 (Viruses, 2023).

system: NL4-3ΔEnv-NanoLuc/SARS-CoV-2 (USA-WA1/2020) pseudovirus; type: cell-based; conditions: ratio CC50 / IC50

Row | Compound | SI
1 | Cc1ccc2nc3s/c(=C/c4coc(-c5ccc(Cl)c(C(=O)O)c5)c4)c(=O)n3c2c1 [NBCoV35] | 253 and 397
2 | O=C(O)c1cc(-c2ccc(/C=c3\sc4nc(=O)c5c6c(sc5n4c3=O)CCCC6)o2)ccc1Cl [NBCoV36] | 130 and >220
3 | Cc1cc(C)c2nc3s/c(=C\c4ccc(-c5ccc(Cl)c(C(=O)O)c5)o4)c(=O)n3c2c1 [NBCoV37] | 644 and 345
4 | Cc1cc2nc3s/c(=C/c4ccc(-c5cccc(C(=O)O)c5)o4)c(=O)n3c2cc1C [NBCoV63] | > 625 and 909
5 | Cc1ccc2c(nc3s/c(=C\c4ccc(-c5ccccc5C(=O)O)o4)c(=O)n32)c1C [NBCoV68] | >13 and >22
6 | Cc1ccc2c(nc3s/c(=C/c4ccc(-c5ccc(C(=O)O)cc5)o4)c(=O)n32)c1C [NBCoV69] | >20 and >17
7 | Cc1cc(C(=O)O)ccc1-c1ccc(/C=c2\sc3nc4ccccc4n3c2=O)o1 [NBCoV70] | >5
8 | O=C(O)c1ccc(-c2ccc(/C=c3/sc4nc5ccccc5n4c3=O)o2)cc1Cl [NBCoV75] | >10 and >15
9 | Cc1cc2nc3s/c(=C/c4ccc(-c5ccc(Cl)cc5)o4)c(=O)n3c2cc1C [NBCoV78] | >6
10 | Cc1cc2nc3s/c(=C/c4ccc(-c5ccccc5C(=O)O)o4)c(=O)n3c2cc1C [NBCoV81] | > 109 and >129

“And” between values parts separate entries of the source, which are not always exact repeats. Identical values can stand only once.
